Anti-infective test results gathered from many reports (values: NIAID ChemDB through PubChem).

Common to all: target-level tests; organism: Candida albicans

ICn: concentration for n% inhibition.

{"SMILES": "CCCCC/C=C\\C=C\\C(=O)OC[C@H]1O[C@@H](O[C@H]2[C@H](OC(=O)/C(C)=C/C=C/CC(O)C(C)CC)[C@@H](O)[C@H](c3c(O)cc(O)cc3CO)O[C@@H]2CO)[C@H](O)[C@@H](O)[C@H]1O", "protein": "Glucan synthase", "read-out": "IC50", "result": "12.9 µg/mL"}
{"SMILES": "c1ccc2c(c1)-c1nccc3ccnc-2c13", "protein": "Topoisomerase I", "read-out": "IC50", "result": "20 µM"}
{"SMILES": "CC(CCC1[NH2+]C1(C)C)C1CC[C@@]2(C)C3=C(CCC12C)C1(C)CCC(O)C(C)(C)C1CC3", "protein": "C24-methyltransferase", "read-out": "Ki", "result": "0.011 µM"}
{"SMILES": "CCCCNC(=O)[C@@H](C[C@H](O)[C@H](CC1CCCCC1)NC(=O)[C@H](CCCC)N1CCN(C(=O)N2CCN(C)CC2)[C@H](Cc2ccccc2)C1=O)C(C)C", "protein": "Secreted aspartic proteinase", "read-out": "IC50", "result": "0.0014 µM"}
{"SMILES": "CC(CCC[NH+](C)C)C1CC[C@@]2(C)C3=C(CCC12C)C1(C)CCC(O)C(C)(C)C1CC3", "protein": "C24-methyltransferase", "read-out": "IC50", "result": "3 µM"}
{"SMILES": "CC1=CC[C@H]2C(C)(C)CCC[C@]2(C)[C@H]1C/C(OS(=O)(=O)[O-])=C(\\C)CCC/C(C)=C/Cc1cc(O)ccc1O", "protein": "Isocitrate lyase", "strain": "ATCC 10231", "read-out": "IC50", "result": ">100 µg/mL"}
{"SMILES": "CCCCNC(=O)[C@@H](C[C@H](O)[C@H](CC1CCCCC1)NC(=O)[C@H](CCCC)N1CCN(C(=O)N2CCN(C)CC2)[C@@H](Cc2ccccc2)C1=O)C(C)C", "protein": "Secreted aspartic proteinase", "read-out": "IC50", "result": "0.002 µM"}
{"SMILES": "C=C1CC[C@H]2C(C)(C)CCC[C@]2(C)[C@H]1C/C(OS(=O)(=O)[O-])=C(\\C)CCC/C(C)=C/Cc1cc(O)ccc1O.[Na+]", "protein": "Isocitrate lyase", "strain": "ATCC 10231", "read-out": "IC50", "result": "54.1 µg/mL"}
{"SMILES": "CN1C(=O)c2c(c3c4ccccc4n([C@@H]4O[C@H](CO)[C@@H](O)[C@H](O)[C@H]4O)c3c3[nH]c4ccccc4c23)C1=O", "protein": "Protein kinase C", "read-out": "IC50", "result": ">100 µM"}
{"SMILES": "CC(C(O)(Cn1cncn1)c1ccc(F)cc1F)S(C)(=O)=O", "protein": "Lanosterol 14-alpha demethylase", "strain": "652", "read-out": "IC50", "result": "0.12 µM"}
{"SMILES": "CC(=O)N[C@@H](CO)[C@@H](O)[C@H](O)[C@H](O)COP(=O)(O)O", "protein": "Phosphoglucose isomerase", "dose": "76 µM", "read-out": "inhibition", "result": "50%"}
{"SMILES": "COCCCOc1cc(C[C@@H](C[C@H](N)[C@@H](O)C[C@H](C(=O)NCC(C)(C)C(N)=O)C(C)C)C(C)C)ccc1OC", "protein": "Secreted aspartic protease", "strain": "MTCC-227(ATCC 10231)", "dose": "500 µg/mL", "read-out": "inhibition", "result": ">50%"}
{"SMILES": "CC(=O)N1CCN(c2ccc(OC[C@H]3CO[C@](Cn4ccnc4)(c4ccc(Cl)cc4Cl)O3)cc2)CC1", "protein": "Lanosterol 14-alpha demethylase", "strain": "652", "read-out": "IC50", "result": "0.038 µM"}
{"SMILES": "O=C(CCCCSc1nc(-c2ccccc2)cc(=O)[nH]1)NO", "protein": "HDAC enzyme", "read-out": "IC50", "result": "0.003 µg/mL"}
{"SMILES": "COc1ccc(CNc2cnc(N)nc2N)cc1OC", "protein": "Dihydrofolate reductase", "read-out": "IC50", "result": "125.8 µM"}
{"SMILES": "Cc1cc(Cl)cc2c(C(=O)O)cc(-c3ccc(Br)cc3)nc12", "protein": "Prolyl-tRNA synthetase", "read-out": "IC50", "result": "0.005 µM"}
{"SMILES": "CCC(C)CC(C)CCCCCCCCC(=O)NC1C[C@@H](O)[C@@H](O)NC(=O)[C@@H]2[C@@H](O)CCN2C(=O)[C@H]([C@@H](O)CC(N)=O)NC(=O)[C@H]([C@H](O)[C@@H](O)c2ccc(OP(=O)([O-])O)cc2)NC(=O)[C@@H]2C[C@@H](O)CN2C(=O)[C@H]([C@H](C)O)NC1=O.[Na+]", "protein": "Beta-(1 3)-glucan synthase", "strain": "MY1028", "read-out": "IC50", "result": ">10 µM"}

2 of the rows above, restated:

| SMILES | protein | strain | dose | read-out | result |
|---|---|---|---|---|---|
| COc1ccc(CNc2cnc(N)nc2N)cc1OC | Dihydrofolate reductase |  |  | IC50 | 125.8 µM |
| CC(=O)N[C@@H](CO)[C@@H](O)[C@H](O)[C@H](O)COP(=O)(O)O | Phosphoglucose isomerase |  | 76 µM | inhibition | 50% |

An empty or dashed field is not shown. Percent inhibition refers to the dose given; in toxicity tests it is the harm to the cells. Conditions beyond the fields shown may differ between rows.